IC50 data for one compound are collected here from ChEMBL document CHEMBL1133601, “Methyl-substituted dispiro-1,2,4,5-tetraoxanes: correlations of structural studies with antimalarial activity” (J Med Chem, 2000).

Test [1] has as its system Plasmodium falciparum. Put plainly: In vitro antimalarial activity against Plasmodium falciparum W2 (Indochina). It counts as functional, organism-based.
Test [2] concerns Plasmodium falciparum. In words: In vitro antimalarial activity against Plasmodium falciparum D6 (Sierra Leone). It counts as functional, organism-based.

Consider `C1CCC2(CC1)OOC1(CCCCC1)OO2`, for which the results for the IC50 with Plasmodium falciparum [1] and with Plasmodium falciparum [2] were 26 nM and 38 nM, respectively.

For orientation: IC50 means the concentration that inhibits the measured activity by half.
